Results taken from patent US20250312345A1, “NON-COVALENT INHIBITORS OF THE MAIN PROTEASE OF SARS-COV-2 AND METHODS OF USE” (YALE UNIVERSITY, priority 2022, published 2025).

Tested on: SARS-CoV-2 replicon
Assay: microbe, parasite or virus in culture
Format: cell-based
Settings: Severe acute respiratory syndrome coronavirus 2, BHK; Table 3

Compound | EC50
Cn1cc(-c2cc(-c3cc(Cl)cc(OCc4scnc4C(F)(F)F)c3)c(=O)n(-c3cccnc3)c2)c(=O)[nH]c1=O [compound 64] | 1080 nM
Cn1cc(-c2cc(-c3cc(Cl)cc(OCCC(F)(F)F)c3)c(=O)n(-c3cccnc3)c2)c(=O)[nH]c1=O [compound 60] | 820 ± 280 nM
